From PMC7102498 come the findings set out here.

Amino acid sequences for entries named in this document (tags omitted). A change or cut given only in a name is not applied to a line headed by its entry.
UniProt P52076: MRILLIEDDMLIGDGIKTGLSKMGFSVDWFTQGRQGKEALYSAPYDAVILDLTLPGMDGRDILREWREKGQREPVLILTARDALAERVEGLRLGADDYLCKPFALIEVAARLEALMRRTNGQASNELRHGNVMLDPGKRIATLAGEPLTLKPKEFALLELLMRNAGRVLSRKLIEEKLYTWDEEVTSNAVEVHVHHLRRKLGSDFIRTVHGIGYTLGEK

This data set addresses QseB (UniProt P52076). The data set can be described thus: EMSA. The following applies: QseB 0-12 uM, recombinant protein, residues 1-219, protein details: His6 (pET28a), probe letters rebuilt from the primers and the genome. In general terms: Mobility shift assays separate free from complexed probe on a gel.

Construct, isoform or probe ends are uncertain for at least one entry.

In the case of “ATTAGTTGCCCTGGCAAGTAATTAGTTGCAGGGGATAATATTGCCCAGGCAAGTATAAGTCAAATGAATGAATTGACCGATGCCACGTTTTGCTAAATCGGTTCAAGTTTTGTTCAATGCGATGCAAGGCTAGCTAAAGAGTGACACTTTATCCTTGTTTACCCCTTATACTTTTCGCTGATAACCCAGATACACAGGATAACAACCACCA (double strand) [p-marA promoter]”, the binding result (shift lost with 10-fold unlabeled probe) is “binds”.
Take “GTTTATTACTCCCTTTAATGTCTGTTTCCGAGCATTTAACAAGATAGTCCTTAACAACTTCTTAAGGGAAAAAAATAAAATTTAGTGCTGTACAGAGCGCGTTACAACACGGTTTACTGGCAGCAAATACGGTTATCGCAGGGATGAAAAA (double strand) [p-qseB promoter]”: the binding result is recorded as “binds”.
